Results of unrelated studies side by side (data: NIAID ChemDB).

All rows: growth or infection tests; species: HIV-1; cells: H9; read-out: inhibition

Neighbouring rows are from separate reports.

compound,strain or isolate,method,tested at,result
Nc1ncnc2c1ncn2C1OC(COP(=O)(O)OC2CC(COP(=O)(O)OC3C(O)C(CO)OC3n3cnc4c(N)ncnc43)OC2n2cnc3c(N)ncnc32)CC1O,IIIB,p24,1 µM,65%
Nc1cc(S(=O)(=O)O)c2ccccc2c1N,,p24,1 µg/mL,0%
NCC(=O)N1CCC[C@H]1C(=O)NCC(=O)O,SF2,p24,100 µM,38%
NC(=O)NO,,p24,200 µM,68.4%
CCN(CC)C(=S)S,LAV,p24,0.0000075 µg/mL,44%
C=C1C[C@@H](CO)O[C@H]1n1ccc(=O)[nH]c1=O,,,100 µM,0%
O=C1OCC2OC(O)C(O)C(O)C2OC(=O)c2cc(O)c(O)c(O)c2-c2c(O)c(O)c3oc(=O)c4c(c(O)c(O)c5oc(=O)c2c3c54)-c2c1cc(O)c(O)c2O,IIIB,p24,5 µg/mL,60%
Nc1ncnc2c1ncn2[C@@H]1O[C@H](COP(=O)([O-])O[C@@H]2C[C@@H](COP(=O)([O-])O[C@@H]3C[C@@H](COP(=O)([O-])O)O[C@H]3n3cnc4c(N)ncnc43)O[C@H]2n2cnc3c(N)ncnc32)C[C@H]1O,IIIB,p24,1 µM,90%
O=P(O)(O)OP(=O)(O)OP(=O)(O)OP(=O)(O)OP(=O)(O)OP(=O)(O)OP(=O)(O)OP(=O)(O)OP(=O)(O)OP(=O)(O)OP(=O)(O)OP(=O)(O)OP(=O)(O)OP(=O)(O)OP(=O)(O)O,IIIB,RT activity,100 µg/mL,38%
CC(=O)N(O)CCCCCNC(=O)CCC(=O)N(O)CCCCCNC(=O)CCC(=O)N(O)CCCCCN,IIIB,p24,30 µM,95%
O=C(O)C1=C[C@@H](OC(=O)c2cc(O)c(O)c(O)c2)[C@@H](OC(=O)c2cc(O)c(O)c(O)c2)[C@H](OC(=O)c2cc(O)c(O)c(O)c2)C1,IIIB,p24,5 µg/mL,60%
C[C@H](CCC(=O)N[C@@H](Cc1cc(I)c(O)cc1I)C(=O)O)[C@H]1CC[C@H]2[C@@H]3[C@H](O)CC4C[C@H](O)CC[C@]4(C)[C@H]3CC[C@]12C,IIIB,syncytia,0.001 µg/mL,67.4%
CCCCCCCCCCCCC/C=C/[C@@H](O)[C@H](CO)NC(=O)CCCOc1ccc2[nH]c(C(=O)N3CCN(c4ncccc4NC(C)C)CC3)cc2c1,IIIB,p24,0.1 µM,76%
CC(S)C(=O)NCC(=O)O,,p24 / antigen,600 µg/mL,74%
O=C1O[C@@H]2[C@@H](OC(=O)c3cc(O)c(O)c(O)c3-c3c1cc(O)c(O)c3O)[C@@H](O)O[C@@H]1COC(=O)c3cc(O)c(O)c(O)c3-c3c(O)c(O)c4oc(=O)c5c(c(O)c(O)c6oc(=O)c3c4c65)-c3c(cc(O)c(O)c3O)C(=O)O[C@@H]21,IIIB,p24,1 µg/mL,20%
O[C@H]1OC[C@H](Cc2ccc3c(c2)OCO3)[C@H]1Cc1ccc2c(c1)OCO2,IIIB,p24,0.05 µM,0%
O=C(O)C[C@@H]1C(=O)O[C@H]2[C@@H]3OC(=O)c4cc(O)c(O)c(O)c4-c4c(cc(O)c(O)c4O)C(=O)OC[C@H]2O[C@@H](OC(=O)c2cc(O)c(O)c(O)c2)[C@@H]3OC(=O)c2cc(O)c(O)c3c2[C@H]1[C@H](O)C(=O)O3,IIIB,p24,20 µM,92%
Nc1ncnc2c1ncn2C1OC(CO)CC1OP(=O)(O)OCC1CC(OP(=O)(O)OCC2OC(n3cnc4c(N)ncnc43)C(O)C2O)C(n2cnc3c(N)ncnc32)O1,IIIB,p24,1 µM,5%
CCCCCCCCCCCCC/C=C/[C@@H](O)C(CO)NC(=O)CCC(=O)Nc1ccc2[nH]c(C(=O)N3CCN(c4ncccc4NC(C)C)CC3)cc2c1,IIIB,p24,0.1 µM,59%
O=C1OCC2OC(O)C(O)C(O)C2OC(=O)c2cc(O)c(O)c(O)c2-c2c(O)c(O)c3oc(=O)c4c(c(O)c(O)c5oc(=O)c2c3c54)-c2c1cc(O)c(O)c2O,IIIB,p24,6 µM,65%
COc1ccc(C[C@H]2COC(=O)[C@@H]2Cc2ccc(O[C@@H]3O[C@H](CO)[C@@H](O)[C@H](O)[C@H]3O)c(OC)c2)cc1OC,IIIB,p24,0.05 µM,0%
CC(CCC(=O)N[C@@H](Cc1ccc(O)cc1)C(=O)O)C1CCC2C3CCC4C[C@H](O)CCC4(C)C3C[C@H](O)C12C,IIIB,syncytia,0.01 µg/mL,84.8%
O=C(O)C[C@H]1C(=O)O[C@H]2[C@H](OC(=O)c3cc(O)c(O)c(O)c3)[C@@H](OC(=O)c3cc(O)c(O)c4c3[C@H]1[C@H](O)C(=O)O4)[C@H](OC(=O)c1cc(O)c(O)c(O)c1)O[C@@H]2COC(=O)c1cc(O)c(O)c(O)c1,IIIB,p24,1 µM,53%
NCC(=O)N1CCC[C@H]1C(=O)NCC(N)=O,SF2,p24,100 µM,98%
Nc1ncnc2c1ncn2[C@@H]1O[C@H](COP(=O)([O-])O)[C@@H](O)[C@H]1OP(=O)([O-])OC[C@H]1O[C@@H](n2cnc3c(N)ncnc32)[C@H](OP(=O)([O-])OC[C@@H]2C[C@@H](O)[C@H](n3cnc4c(N)ncnc43)O2)[C@@H]1O,IIIB,p24,1 µM,10%
C[C@H]1[C@H](O)[C@@H](C)/C=C/C=C/C=C/C=C/C=C/C=C/C=C/[C@H](O[C@@H]2O[C@H](C)[C@@H](O)[C@H](N)[C@@H]2O)C[C@@H]2O[C@](O)(C[C@@H](O)C[C@@H](O)CC[C@H](O)[C@@H](O)C[C@@H](O)CC(=O)O[C@H]1C)C[C@H](O)[C@H]2C(=O)O,IIIB,p24 / antigen,1 µg/mL,72%
O=c1ccn(C2C[C@H](CO)[C@@H](CO)C2)c(=O)[nH]1,IIIB,RT activity,10 µg/mL,23%
CCCCCCCCCCCCCC(=O)NCC(N)=O,IIIB,RT activity,10 µg/mL,82%
O=C(O)C[C@H]1C(=O)O[C@H]2[C@H](OC(=O)c3cc(O)c(O)c(O)c3)[C@@H](OC(=O)c3cc(O)c(O)c4c3[C@H]1[C@H](O)C(=O)O4)[C@H](OC(=O)c1cc(O)c(O)c(O)c1)O[C@@H]2COC(=O)c1cc(O)c(O)c(O)c1,IIIB,p24,0.2 µg/mL,0%
NCC(N)=O,SF2,p24,100 µM,99%
O=C1OC(C2OC(=O)c3cc(O)c(O)c(O)c3-c3c(O)c(O)c4oc(=O)c5c(c(O)c(O)c6oc(=O)c3c4c65)-c3c(cc(O)c(O)c3O)C(=O)OCC2O)C2OC(=O)c3c(c(O)c(O)c(O)c3C2O)-c2c1cc(O)c(O)c2O,IIIB,p24,5 µM,71%
O=C(O)C[C@@H]1C(=O)O[C@H]2[C@@H]3OC(=O)c4cc(O)c(O)c(O)c4-c4c(cc(O)c(O)c4O)C(=O)OC[C@H]2O[C@@H](OC(=O)c2cc(O)c(O)c(O)c2)[C@@H]3OC(=O)c2cc(O)c(O)c3c2[C@H]1[C@H](O)C(=O)O3,IIIB,p24,20 µg/mL,90%
Cc1cn(C2C[C@H](CO)[C@@H](CO)C2)c(=O)[nH]c1=O,IIIB,RT activity,10 µg/mL,33%
O=C(CCCCCCCCCCC(=O)Nc1cc(S(=O)(=O)O)cc2cc(S(=O)(=O)O)cc(O)c12)Nc1cc(S(=O)(=O)O)cc2cc(S(=O)(=O)O)cc(O)c12,,p24,2.5 µg/mL,46%
CCCCCCCCCCCCC/C=C/[C@@H](O)C(CO)NC(=O)CCCCCCCCC(=O)Nc1ccc2[nH]c(C(=O)N3CCN(c4ncccc4NC(C)C)CC3)cc2c1,IIIB,p24,0.1 µM,66%

The first 4 rows once more:

compound | strain or isolate | method | tested at | result
Nc1ncnc2c1ncn2C1OC(COP(=O)(O)OC2CC(COP(=O)(O)OC3C(O)C(CO)OC3n3cnc4c(N)ncnc43)OC2n2cnc3c(N)ncnc32)CC1O | IIIB | p24 | 1 µM | 65%
Nc1cc(S(=O)(=O)O)c2ccccc2c1N |  | p24 | 1 µg/mL | 0%
NCC(=O)N1CCC[C@H]1C(=O)NCC(=O)O | SF2 | p24 | 100 µM | 38%
NC(=O)NO |  | p24 | 200 µM | 68.4%

Percent inhibition refers to the dose given; in toxicity tests it is the harm to the cells. An empty or dashed field is not shown.